This assay concerns HCV NS3/4A protease D168A variant. In words: Enzyme inhibition assay, D168A NS3/4A protease variant. As to conditions: Ki D168A / Ki GT1a WT, in parentheses in Table S1. On the procedure:
The HCV GT1a NS3/4A protease gene described in the Bristol Myers Squibb patent was synthesized by GenScript and cloned into a PET28a expression vector ([52]). Cys159 was mutated to a serine residue to prevent disulfide bond formation and facilitate crystallization. The D168A gene was engineered using a site-directed mutagenesis protocol from Stratagene. Protein expression and purification were carried out as previously described ([28]). Briefly, transformed Escherichia coli BL21(DE3) cells were grown in Tris-borate (TB) medium containing 30 μg/ml of kanamycin antibiotic at 37°C. […]
The inner-filter effect (IFE) for the NS3/4A protease substrate was determined using a previously described method ([53]). […] The fluorescence of free 5-FAM was determined by subtracting the first fluorescence endpoint reading from the reading at the second round. IFE corrections were then calculated by dividing the free 5-FAM florescence at each substrate concentration by the free 5-FAM florescence at zero substrate.
Km constants for GT1 and D168A protease were previously determined ([29]). […] The fluorescence output from the substrate cleavage product was measured kinetically using an EnVision plate reader (Perkin-Elmer) with excitation wavelength at 485 nm and emission at 530 nm. […]

Structures were worked out from names or drawings and are uncertain.

As for `COC(=O)N[C@H](C(=O)N[C@H]1CCCCC/C=C\[C@@H]2C[C@@]2(C(=O)NS(=O)(=O)C2(C)CC2)NC(=O)[C@@H]2C[C@@H](Oc3nc4cc(OC)ccc4nc3C)CN2C1=O)C1CCCCC1`, the “Fold change of Ki, D168A relative to WT” value came to 11 fold.

Values taken from PMC7157764, “Avoiding Drug Resistance by Substrate Envelope-Guided Design: Toward Potent and Robust HCV NS3/4A Protease Inhibitors” (mBio, 2020).
